Test results published in PMC6110920.
Where a protein sequence is shown, tags need not be part of it.

Target: T1, His6-ANR (Pseudomonas aeruginosa PAO1) (UniProt P23926)
T1 sequence (looked up): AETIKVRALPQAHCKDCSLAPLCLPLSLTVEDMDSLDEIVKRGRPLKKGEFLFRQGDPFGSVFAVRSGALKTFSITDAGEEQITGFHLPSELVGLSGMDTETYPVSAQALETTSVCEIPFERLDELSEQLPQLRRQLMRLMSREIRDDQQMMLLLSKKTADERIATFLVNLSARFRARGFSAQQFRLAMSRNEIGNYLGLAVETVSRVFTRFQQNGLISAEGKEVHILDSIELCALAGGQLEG
Assay: DNase I footprinting
Conditions: 30 pmol ANR with 0.45 pmol DNA in 50 ul, ANR preincubated with 100 mM DTT and 0.1 mM Fe(II), aerobic; DNase I footprinting: 0.45 pmol DNA, 0-30 pmol ANR in 50 ul, 20 min at room temperature; binding buffer, salt and pH not stated (protein in 50 mM Tris pH 8.0); recombinant protein; residues 2-244; protein details: N-terminal His6; label: 5' 6-FAM on reverse primer strand; probe letters rebuilt from the primers and the genome

Q: Does “GCGATGCATCGCCCTCGGCCAGCGCAGGGCGGTCGGCAAGGTGGTGGTGGAGGTTCGCTGAGCCACGAAGGCGGCGAGTATTGCCTCCCGCCCGTGCGGAGAAAGGCATGGCGGGCCGGAGCGATACACCGGCCGAGGCCCACGCTGTCAGATGTTTTTCCCCTATGAAGGCCCCGGTTTCCGACCGGGGCTTTCTTATTTCCGACCAATGCACTCAACCTGTAACATTTCCGCTATTTTTTCATTTACGAAAAATGTAGTGTTCGCAACCGCGTAAAAAGGCGCGACACAACAACAAGCGGAGCTCGCGA (double strand) [glpT upstream region, 301 bp]” bind?
A: Result: binds
